Pooled drug test results. Numbers come from NIAID ChemDB, via PubChem.

Shared fields: growth or infection tests; species: Staphylococcus aureus; read-out: MIC

Neighbouring rows are from separate reports. An empty or dashed field is not shown.

{"smiles": "CC[C@H]1OC(=O)[C@H](C)[C@@H](O[C@H]2C[C@@](C)(OC)[C@@H](O)[C@H](C)O2)[C@H](C)[C@@H](O[C@H]2O[C@@H](C)C[C@@H](N(C)C)[C@@H]2O)[C@](C)(O)C[C@@H](C)C(=O)[C@H](C)[C@@H](O)[C@]1(C)O", "strain or isolate": "33591 (erythromycin methicillin-resistant)", "result": ">64 µg/mL"}
{"smiles": "C=C1COC2[C@@H](C)C(=NC(C)=O)[C@H](C)C[C@@](C)(OC1)[C@H](O[C@@H]1O[C@H](C)C[C@H](N(C)C)[C@H]1O)[C@@H](C)C(=O)[C@@H](C)C(=O)O[C@H](CC)[C@@]2(C)O", "strain or isolate": "33591 (erythromycin methicillin-resistant)", "result": ">64 µg/mL"}
{"smiles": "NCCCNc1cc2c(cc1F)c(=O)c(C(=O)O)cn2-c1ccc(F)cc1F", "strain or isolate": "ATCC 6538P", "result": "0.39 µg/mL"}
{"smiles": "CC[C@H]1OC(=O)[C@H](C)C(=O)[C@H](C)[C@@H](O[C@@H]2O[C@H](C)C[C@H](N(C)C)[C@H]2O)[C@@]2(C)C[C@@H](C)C(=NC(C)=O)[C@H](C)[C@@H](OC/C(=N\\OCC#Cc3ccc(N)nc3)CO2)[C@]1(C)O", "strain or isolate": "33591 (erythromycin methicillin-resistant)", "result": ">64 µg/mL"}
{"smiles": "COC(=O)N1CC=C(c2ccc(C3=NO[C@H](CNC(=O)O)C3)cc2)CC1", "strain or isolate": "UC9213", "result": ">16 µg/mL"}
{"smiles": "O=C(c1ccno1)N1CCC(Cn2c(=O)cc(Nc3ccc4c(c3)CCC4)[nH]c2=O)CC1", "result": "8 µg/mL"}
{"smiles": "CCCCCCCCCCCC[N+](C)(C)COC1CCCCC1", "strain or isolate": "ATCC 6538", "result": "1.38 µM"}
{"smiles": "COc1ccc(-c2ccc(N3CC(CNC(C)=O)CC3=O)cc2)ccc1=O", "strain or isolate": "UC9213", "result": ">64 µg/mL"}
{"smiles": "CC(=O)NC[C@H]1CN(c2ccc(OC3CCN(C(=O)c4ccno4)CC3)c(F)c2)C(=O)O1", "strain or isolate": "OC4172 methicillin-susceptible", "result": "16 µg/mL"}
{"smiles": "CC[C@H]1OC(=O)[C@@](C)(F)C(=O)[C@H](C)[C@@H](O[C@@H]2O[C@H](C)C[C@H](N(C)C)[C@H]2O)[C@@]2(C)C[C@@H](C)C(=O)[C@H](C)[C@@H](OC/C(=N\\OCc3ccc(-n4cccn4)nc3)CO2)[C@]1(C)O", "strain or isolate": "29213 (erythromycin A-susceptible)", "result": "0.13 µg/mL"}
{"smiles": "CCCCCCCCCCCC[N+](C)(C)COC(CC)CCCCC", "strain or isolate": "ATCC 6538", "result": "2.55 µM"}
{"smiles": "COCCNc1cc2c(cc1F)c(=O)c(C(=O)O)cn2C1CC1", "strain or isolate": "ATCC 6538P", "result": "6.25 µg/mL"}
{"smiles": "CC[C@H]1OC(=O)[C@H](C)C(=O)[C@H](C)[C@@H](O[C@@H]2O[C@H](C)C[C@H](N(C)C)[C@H]2O)[C@@]2(C)C[C@@H](C)C(=NC(C)=O)[C@H](C)[C@@H](OC/C(=N\\OCc3cccc(N)n3)CO2)[C@]1(C)O", "strain or isolate": "27660 (erythromycin-resistant)", "result": "0.13 µg/mL"}
{"smiles": "CCc1cc(Nc2cc(=O)n(CC3CCN(C(=O)c4ccno4)CC3)c(=O)[nH]2)ccc1C", "result": "8 µg/mL"}
{"smiles": "NC(=O)CNc1cc2c(cc1F)c(=O)c(C(=O)O)cn2C1CC1", "strain or isolate": "ATCC 5278 (methicillin-resistant)", "result": ">100 µg/mL"}
{"smiles": "CCCCCCCCCCCC[N+](C)(C)COCCCC", "strain or isolate": "ATCC33592", "result": "4.46 µM"}
{"smiles": "CC(=O)NC[C@H]1CN(c2ccc3c(c2)OCc2nccn2-3)C(=O)O1", "strain or isolate": "48N", "result": "0.5 µg/mL"}
{"smiles": "CCCCCCCCCOC[N+](C)(C)CCCCCCCC", "strain or isolate": "ATCC 6538", "result": "2.86 µM"}
{"smiles": "Clc1ccc2c(c1)C1OCCCC1C(c1c[nH]c3ccc(Br)cc13)N2", "strain or isolate": "Methicillin-resistant", "result": "<0.39 µg/mL"}
{"smiles": "CNCCCCCCN(C)c1cc2c(cc1F)c(=O)c(C(=O)O)cn2C1CC1", "strain or isolate": "ATCC 6538P", "result": "12.5 µg/mL"}
{"smiles": "CC[C@H]1OC(=O)[C@H](C)C(=O)[C@H](C)[C@@H](O[C@@H]2O[C@H](C)C[C@H](N(C)C)[C@H]2O)[C@@]2(C)C[C@@H](C)C(=NC(C)=O)[C@H](C)[C@@H](OC/C(=N\\OCc3ccc(-c4ncccn4)s3)CO2)[C@]1(C)O", "strain or isolate": "29213 (erythromycin A-susceptible)", "result": "0.25 µg/mL"}
{"smiles": "CCCCCCCCCCCC[N+](C)(C)COCCCCC", "strain or isolate": "ATCC 6538", "result": "3.57 µM"}
{"smiles": "CNC1CCN(c2cc3c(cc2F)c(=O)c(C(=O)O)cn3C2CC2)CC1", "strain or isolate": "ATCC 6538P", "result": "1.56 µg/mL"}
{"smiles": "CC[C@H]1OC(=O)[C@H](C)C(=O)[C@H](C)[C@@H](O[C@@H]2O[C@H](C)C[C@H](N(C)C)[C@H]2O)[C@](C)(OC)C[C@@H](C)C(=O)[C@H](C)[C@H]2N(CCCCn3cnc(-c4cccnc4)c3)C(=O)O[C@]12C", "strain or isolate": "33591 (erythromycin methicillin-resistant)", "result": ">64 µg/mL"}
{"smiles": "O=C(O)c1cn(C2CC2)c2cc(N3CCOCC3)c(F)cc2c1=O", "strain or isolate": "ATCC 5278 (methicillin-resistant)", "result": "0.78 µg/mL"}
{"smiles": "COc1ccc(-c2ccc(C3=CC(CNC(C)=O)OC3=O)cc2)ccc1=O", "strain or isolate": "UC 12673", "result": "2 µg/mL"}
{"smiles": "CCCCCCCCCCCCSC[N+](C)(C)CCCCCCCCCCCC", "strain or isolate": "ATCC 6538", "result": "5.38 µM"}
{"smiles": "CC[C@H]1OC(=O)[C@H](C)C(=O)[C@H](C)[C@@H](O[C@@H]2O[C@H](C)C[C@H](N(C)C)[C@H]2O)[C@@]2(C)C[C@@H](C)C(=NC(C)=O)[C@H](C)C(OC/C(=N/OCc3ccccc3)CO2)[C@]1(C)O", "strain or isolate": "25923 (erythromycin-susceptible)", "result": "2 µg/mL"}
{"smiles": "CC(=O)NC[C@H]1CN(c2ccc(OC3CCN(C(=O)CO)CC3)c(F)c2)C(=O)O1", "strain or isolate": "OC4172 methicillin-susceptible", "result": "4 µg/mL"}
{"smiles": "CCCCCCCC[N+](C)(C)COCCC(C)CCCC(C)C", "strain or isolate": "ATCC 6538", "result": "13.7 µM"}
{"smiles": "CC(=O)NC[C@H]1CN(c2ccc(OC3CCN(C(=O)COCc4cccnc4)CC3)c(F)c2)C(=O)O1", "strain or isolate": "OC2878 methicillin-resistant", "result": "16 µg/mL"}
{"smiles": "CC[C@H]1OC(=O)[C@@](C)(F)C(=O)[C@H](C)[C@@H](O[C@@H]2O[C@H](C)C[C@H](N(C)C)[C@H]2O)[C@@]2(C)C[C@@H](C)C(=NC(C)=O)[C@H](C)[C@@H](OC/C(=N\\OCc3ccc(C(N)=O)s3)CO2)[C@]1(C)O", "strain or isolate": "27660 (erythromycin A -resistant)", "result": "0.13 µg/mL"}
{"smiles": "CCCCCCCCCCCC[N+](C)(C)COCC(CC)CC", "strain or isolate": "ATCC 6538", "result": "2.75 µM"}
{"smiles": "Cn1cc(C(=O)O)c(=O)c2cc3cc(F)c(N4CCN(c5ccc(F)cc5)CC4)cc3nc21", "strain or isolate": "LF11C128 (quinolone-resistant)", "result": "0.5 µg/mL"}
{"smiles": "O=C(O)NC[C@H]1CC(c2cc(F)c(N3CCN(C(=O)CO)CC3)c(F)c2)=NO1", "strain or isolate": "UC9218", "result": "1 µg/mL"}
{"smiles": "CC[C@H]1OC(=O)[C@H](C)C(=O)[C@H](C)[C@@H](O[C@@H]2O[C@H](C)C[C@H](N(C)C)[C@H]2O)[C@@]2(C)C[C@@H](C)C(=NC(C)=O)[C@H](C)[C@@H](OC/C(=N\\Oc3ccc(-c4nccs4)nc3)CO2)[C@]1(C)O", "strain or isolate": "25923 (erythromycin-susceptible)", "result": "0.25 µg/mL"}
{"smiles": "O=C(O)NC[C@H]1CC(c2ccc(N3CCN(C(=O)CO)CC3)c(F)c2)=NO1", "strain or isolate": "UC9213", "result": "4 µg/mL"}
{"smiles": "CC[C@H]1OC(=O)[C@@](C)(F)C(=O)[C@H](C)[C@@H](O[C@@H]2O[C@H](C)C[C@H](N(C)C)[C@H]2O)[C@@]2(C)C[C@@H](C)C(=NC(C)=O)[C@H](C)[C@@H](OC/C(=N\\OCc3ccc(N)nc3)CO2)[C@]1(C)O", "strain or isolate": "27660 (erythromycin A -resistant)", "result": "<0.06 µg/mL"}
{"smiles": "CC(=O)NC[C@H]1CN(c2ccc(OC3CCN(C(C)=O)CC3)nc2)C(=O)O1", "strain or isolate": "OC4172 methicillin-susceptible", "result": ">128 µg/mL"}
{"smiles": "CCC(=O)NC[C@H]1CN(c2ccc(C3CCS(=O)(=O)CC3)c(F)c2)C(=O)O1", "strain or isolate": "UC 12673", "result": "4 µg/mL"}
{"smiles": "CC[C@H]1OC(=O)[C@H](C)C(=O)[C@H](C)[C@@H](O[C@@H]2O[C@H](C)C[C@H](N(C)C)[C@H]2O)[C@@]2(C)C[C@@H](C)C(=NC(C)=O)[C@H](C)[C@@H](OC/C(=N\\Oc3ccc(-c4nnc(N)s4)cc3)CO2)[C@]1(C)O", "strain or isolate": "25923 (erythromycin-susceptible)", "result": "0.13 µg/mL"}
{"smiles": "Cn1cc(C(=O)O)c(=O)c2cc3cc(F)c(NC4CCCCC4)cc3nc21", "strain or isolate": "LF11C128 (quinolone-resistant)", "result": "1 µg/mL"}
{"smiles": "C=CC(=O)NC[C@H]1CN(c2ccc(C3CCS(=O)(=O)CC3)c(F)c2)C(=O)O1", "strain or isolate": "UC9213", "result": "2 µg/mL"}
{"smiles": "CC[C@H]1OC(=O)[C@H](C)C(=O)[C@H](C)[C@@H](O[C@@H]2O[C@H](C)C[C@H](N(C)C)[C@H]2O)[C@@]2(C)C[C@@H](C)C(=NC(C)=O)[C@H](C)[C@@H](OC/C(=N\\Oc3ccccc3)CO2)[C@]1(C)O", "strain or isolate": "25923 (erythromycin-susceptible)", "result": "0.5 µg/mL"}
{"smiles": "Cc1ccc2[nH]cc(C3Nc4ccc(Cl)cc4C4OCCC34)c2c1", "strain or isolate": "Methicillin-resistant", "result": ">25 µg/mL"}

The first 6 rows once more:

smiles,strain or isolate,result
CC[C@H]1OC(=O)[C@H](C)[C@@H](O[C@H]2C[C@@](C)(OC)[C@@H](O)[C@H](C)O2)[C@H](C)[C@@H](O[C@H]2O[C@@H](C)C[C@@H](N(C)C)[C@@H]2O)[C@](C)(O)C[C@@H](C)C(=O)[C@H](C)[C@@H](O)[C@]1(C)O,33591 (erythromycin methicillin-resistant),>64 µg/mL
C=C1COC2[C@@H](C)C(=NC(C)=O)[C@H](C)C[C@@](C)(OC1)[C@H](O[C@@H]1O[C@H](C)C[C@H](N(C)C)[C@H]1O)[C@@H](C)C(=O)[C@@H](C)C(=O)O[C@H](CC)[C@@]2(C)O,33591 (erythromycin methicillin-resistant),>64 µg/mL
NCCCNc1cc2c(cc1F)c(=O)c(C(=O)O)cn2-c1ccc(F)cc1F,ATCC 6538P,0.39 µg/mL
CC[C@H]1OC(=O)[C@H](C)C(=O)[C@H](C)[C@@H](O[C@@H]2O[C@H](C)C[C@H](N(C)C)[C@H]2O)[C@@]2(C)C[C@@H](C)C(=NC(C)=O)[C@H](C)[C@@H](OC/C(=N\OCC#Cc3ccc(N)nc3)CO2)[C@]1(C)O,33591 (erythromycin methicillin-resistant),>64 µg/mL
COC(=O)N1CC=C(c2ccc(C3=NO[C@H](CNC(=O)O)C3)cc2)CC1,UC9213,>16 µg/mL
O=C(c1ccno1)N1CCC(Cn2c(=O)cc(Nc3ccc4c(c3)CCC4)[nH]c2=O)CC1,-,8 µg/mL